The source of these data is patent publication EP0852148B1, “Products having anti-microbial activity” (SION MICROTEC LTD., priority 1997, dated 1998).

The series can be described thus: Release of radioactive CHXH from cotton gauze into L.B. medium. To be noted: 5 ml L.B. medium renewed every 24 hours.

Counter-ions that a name gives are not always drawn.

In the case of `N=C(NCCCCCCNC(=N)NC(=N)Nc1ccc(Cl)cc1)NC(=N)Nc1ccc(Cl)cc1` [CHXH, chlorohexidine hydrochloride], for the setting “20 days”, the sustained-release profile result is on record as “almost linear”. The “amount of CHXH released, of the amount contained in the gauze after washing 3 times” value (during the 20 days) is reported as “about 4%”.
